Measurements: PMC5241705 (ACS Infectious Diseases, 2016)

Biological target: Mth GuaB2 ΔCBS (Mycolicibacterium thermoresistibile, UniProt G7CNL4, R236G)
Experiment: biochemical

Structure (SMILES): O=C(C1CCCCC1)N1CCN(S(=O)(=O)c2cccc3cnccc23)CC1 [VCC234718, N-(5-Isoquinolinylsulfonyl)-N’-cyclohexanoyl-piperazine]
- Ki: 0.13 µM
